Key:
[1] = tested on: Coxsackievirus type B3 (CVB3); assay: Anticoxsackieviral cell culture assay (XTT, EC50), CVB3; assay type: cell-based, coxsackievirus B3 in H1-HeLa cells
Method: (§1) Anticoxsackieviral Cell Culture Assay:
(§2) Coxsackievirus types A-21 (CAV-21) and B3 (CVB3) were purchased from American Type Culture Collection (ATCC, Rockville, Md.). Virus stocks were propagated and antiviral assays were performed in H1-HeLa cells (ATCC). Cells were grown in minimal essential medium with 10% fetal bovine serum (Life Technologies, Gaithersburg, Md.). The ability of the compounds of this invention to protect cells against either CAV-21 or CVB3 infection was measured by the XTT dye reduction method. This method is described in Weislow et al., J. Natl. Cancer Inst. (1989), vol. 81, 577-586. H1-HeLa cells were infected with CAV-21 or CVB3 at a multiplicity of infection (m.o.i.) of 0.025 or 0.075, respectively, or mock-infected with medium only. H1-HeLa cells were plated at 4×10^4 cells per well in a 96-well plate and incubated with appropriate concentrations of the test compound. One day (CVB3) or two days (CAV-21) later, XTT/PMS was added to test plates and the amount of formazan produced was quantified spectrophotometrically at 450/650 nm. The EC50 was calculated as the concentration of compound that increased the formazan production in compound-treated, virus-infected cells to 50% of that produced by compound-free, uninfected cells. The 50% cytotoxic dose (CC50) was calculated as the concentration of compound that decreased formazan production in compound-treated, uninfected cells to 50% of that produced in compound-free, uninfected cells. The therapeutic index (TI) was calculated by dividing the CC50 by the EC50.

[2] = tested on: enterovirus type 70 (EV 70); assay: Anti-enteroviral cell culture assay (XTT, EC50), EV 70; assay type: cell-based, enterovirus 70 in MRC-5 cells; conditions: ENT-70
Method: (§3) Anti-Echoviral and Anti-Enteroviral Cell Culture Assays
(§4) Echovirus type 11 (ECHO 11) was purchased from ATCC (Rockville, Md.). Virus stocks were propagated and antiviral assays were performed in MRC-5 cells (ATCC). Cells were grown in minimal essential medium with 10% fetal bovine serum (Life Technologies, Gaithersburg, Md.). The ability of the compounds of this invention to protect cells against ECHO 11 infection was measured by the XTT dye reduction method (Weislow et al., J. Natl. Cancer Inst. (1989), vol. 81, 577-586). MRC-5 cells were infected with ECHO 11 at an m.o.i. of 0.003 or 0.004, respectively, or mock-infected with medium only. Infected or uninfected cells were added at 1×10^4 cells per well and incubated with appropriate concentrations of compound. Four days later, XTT/PMS was added to test plates, and the amount of formazan produced was quantified spectrophotometrically at 450/650 nm. The EC50 was calculated as the concentration of compound that increased the formazan production in compound-treated, virus-infected cells to 50% of that produced by compound-free, uninfected cells. The 50% cytotoxic dose (CC50) was calculated as the concentration of compound that decreased formazan production in compound-treated, uninfected cells to 50% of that produced in compound-free, uninfected cells. The therapeutic index (TI) was calculated by dividing the CC50 by the EC50. Activity of the compounds against enterovirus type 70 (EV 70) may be measured by the same assay as described above in this section. Enterovirus type 70 (EV 70) may be obtained from the American Type Culture Collection ATCC (Rockville, Md.).

[3] = tested on: Coxsackievirus type A-21 (CAV-21); assay: Anticoxsackieviral cell culture assay (XTT, EC50), CAV-21; assay type: cell-based, coxsackievirus A-21 in H1-HeLa cells
Method: as §1, §2

HRV-14 = assay: Antirhinoviral H1-HeLa cell culture assay (XTT cell protection, EC50), HRV-14; assay type: cell-based, human rhinovirus (HRV) serotype-14 in H1-HeLa cells
Procedure, shortened: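 XTT dye reduction (450/650 nm) measured survival of H1-HeLa cells two days after HRV-14 infection at m.o.i. 0.13 in the presence of compound, giving EC50. The therapeutic index is CC50 divided by EC50.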

[4] = tested on: Echovirus type 11 (ECHO 11); assay: Anti-echoviral cell culture assay (XTT, EC50), ECHO 11; assay type: cell-based, echovirus 11 in MRC-5 cells; conditions: ECHO-11
Method: as §3, §4

coxsackievirus B5 (CVB5) = assay: Antiviral cell culture assay (EC50), coxsackievirus B5; assay type: cell-based
[5] = tested on: strains of human rhinovirus (HRV); assay: Antirhinoviral H1-HeLa cell culture assay (XTT cell protection, EC50), other HRV strains; assay type: cell-based, human rhinovirus in H1-HeLa cells
Procedure, shortened: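 Protection of H1-HeLa cells from rhinovirus was scored two days post-infection via XTT dye reduction read at 450/650 nm, alongside mock-infected cells for toxicity. CC50/EC50 gives the therapeutic index.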

coxsackievirus B2 (CVB2) = assay: Antiviral cell culture assay (EC50), coxsackievirus B2; assay type: cell-based
echovirus 9 (ECHO-9) = assay: Antiviral cell culture assay (EC50), echovirus 9; assay type: cell-based; conditions: ECHO9

CCOC(=O)/C=C\[C@H](CCC(N)=O)NC(=O)[C@H](Cc1ccccc1)n1cccc(NC(=O)c2cc(C)on2)c1=O [Compound 5, trans-(2′S,4S)-6-Carbamoyl-4-(2′-{3″-[(5′″-methylisoxazole-3′″-carbonyl)amino]-2″-oxo-2″H-pyridin-1″-yl}-3′-phenylpropionylamino)hex-2-enoic Acid Ethyl Ester]
TI [1]: >17 | TI [2]: >556 | TI [3]: >7 | TI (HRV-14): >625 | TI [4]: >185

CCOC(=O)/C=C/[C@H](CCC(N)=O)NC(=O)[C@H](Cc1ccccc1)n1cccc(NC(=O)C2CCCC2)c1=O [Compound 6, trans-(2′S,4S)-6-Carbamoyl-4-{2′-[3″-cyclopentanecarbonylamino-2″-oxo-2″H-pyridin-1″-yl]-3′-phenylpropionylamino}hex-2-enoic Acid Ethyl Ester]
TI [1]: >4 | TI [2]: >164 | TI [3]: >2 | TI (HRV-14): >294 | TI [4]: >29

CC[C@@H](C(=O)N[C@H](/C=C/C(=O)OC1CCC1)C[C@@H]1CCNC1=O)n1cccc(NC(=O)c2cc(C)on2)c1=O [Compound 59, trans-(2′S,3′″″S,4S)-4-[2′-(3″-{[1′″-(5″″-Methylisoxazol-3″″-yl)methanoyl]amino}-2′″oxo-2′″H-pyridin-1′″-yl)butanoylamino]-5-(2′″″-oxopyrrolidin-3′″″-yl)pent-2-enoic Acid Cyclobutyl Ester]
TI (coxsackievirus B5 (CVB5)): >250 | TI ([5]; HRV-1A): >119 | TI ([5]; HRV-2): >204 | TI ([5]; HRV-3): >303 | TI ([5]; HRV-9): >142 | TI ([5]; HRV-10): >172 | TI ([5]; HRV-11): >714 | TI ([5]; HRV-13): >833 | TI ([5]; HRV-16): >95 | TI ([5]; HRV-19): >227 | TI ([5]; HRV-23): >270 | TI ([5]; HRV-25): >238 | TI ([5]; HRV-39): >81 | TI ([5]; HRV-78): >136 | TI ([5]; HRV-Hanks): >120 | TI (HRV-14): >500 | TI (coxsackievirus B2 (CVB2)): >200 | TI (echovirus 9 (ECHO-9)): >250

CC[C@@H](C(=O)N[C@H](/C=C/C(=O)OCc1ccccc1)C[C@@H]1CCNC1=O)n1cccc(NC(=O)c2cc(C)on2)c1=O [Compound 62, trans-(2′S,3′″″S,4S)-4-[2′-(3″-{[1′″-(5″″-Methylisoxazol-3″″-yl)methanoyl]amino}-2′″oxo-2′″H-pyridin-1′″-yl)butanoylamino]-5-(2′″″-oxopyrrolidin-3′″″-yl)pent-2-enoic Acid Benzyl Ester]
TI (coxsackievirus B5 (CVB5)): >500 | TI [1]: >666 | TI ([5]; HRV-1A): >588 | TI ([5]; HRV-2): >222 | TI ([5]; HRV-3): >192 | TI ([5]; HRV-9): >76 | TI ([5]; HRV-10): >192 | TI ([5]; HRV-11): >1000 | TI ([5]; HRV-13): >2500 | TI ([5]; HRV-16): >188 | TI ([5]; HRV-19): >476 | TI ([5]; HRV-23): >312 | TI ([5]; HRV-25): >555 | TI ([5]; HRV-39): >232 | TI ([5]; HRV-78): >175 | TI ([5]; HRV-Hanks): >192 | TI [3]: >33 | TI (HRV-14): >163 | TI (coxsackievirus B2 (CVB2)): >625 | TI (echovirus 9 (ECHO-9)): >2500

C#CC[C@@H](C(=O)N[C@H](/C=C/C(=O)OCc1ccccc1)C[C@@H]1CCNC1=O)n1cccc(NC(=O)c2cc(C)on2)c1=O [Compound 63, trans-(2′S,3′″″S,4S)-4-[2′-(3″-{[1′″-(5″″-Methylisoxazol-3″″-yl)methanoyl]amino}-2′″-oxo-2′″H-pyridin-1′″-yl)pent-4″-ynoylamino]-5-(2′″″-oxopyrrolidin-3′″″-yl)pent-2-enoic Acid Benzyl Ester]
TI (coxsackievirus B5 (CVB5)): >1000 | TI [1]: >714 | TI ([5]; HRV-1A): >833 | TI ([5]; HRV-2): >416 | TI ([5]; HRV-3): >370 | TI ([5]; HRV-9): >153 | TI ([5]; HRV-10): >217 | TI ([5]; HRV-11): >588 | TI ([5]; HRV-13): >222 | TI ([5]; HRV-16): >217 | TI ([5]; HRV-19): >714 | TI ([5]; HRV-23): >270 | TI ([5]; HRV-25): >1428 | TI ([5]; HRV-39): >285 | TI ([5]; HRV-78): >294 | TI ([5]; HRV-Hanks): >25 | TI [3]: >65 | TI (HRV-14): >196 | TI (coxsackievirus B2 (CVB2)): >833 | TI (echovirus 9 (ECHO-9)): >5000

— patent publication US6514997B2, “Antipicornaviral compounds and compositions, their pharmaceutical uses, and materials for their synthesis” (Agouron Pharmaceuticals, Inc., priority 1999, dated 2003)
